Measured values reported in article PMC7932109 (Science (New York, N.y.), 2021).

Biological target: SARS-CoV-2 spike receptor binding domain (RBD), residues 319 to 541 (SARS-CoV-2, UniProt P0DTC2, biotinylated for SPR; […] no label told for ELISA and crystals)
Assay: SPR
Details: both partners purified

B1: VHH E (VHH)
VHH: QVQLVETGGGFVQPGGSLRLSCAASGVTLDYYAIGWFRQAPGKEREGVSCIGSSDGRTYYSDSVKGRFTISRDNAKNTVYLQMNSLKPEDTAVYYCALTVGTYYSGNYHYTCSDDMDYWGKGTQVTVSS
notes: also called nanobody E; source: E. coli WK6, periplasmic extract, purified (Ni-NTA, desalting or gel filtration)
Kd: 2 nM
